This is an account of results in article PMC5025708, “Structural Basis of Host Autophagy-related Protein 8 (ATG8) Binding by the Irish Potato Famine Pathogen Effector Protein PexRD54*^([image sbox.jpg])^♦” (The Journal of Biological Chemistry, 2016).

Assay [1] deals with T1, ATG8CL-GST-His fusion protein (potato, UniProt M1C146 1-119).
T1 construct: source: E. coli, purified (Ni-NTA, gel filtration)
T1 sequence: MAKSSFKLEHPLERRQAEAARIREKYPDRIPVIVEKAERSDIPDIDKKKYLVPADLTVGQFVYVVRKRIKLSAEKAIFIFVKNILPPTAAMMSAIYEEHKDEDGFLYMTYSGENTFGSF
Briefly: peptide or protein array.

Assay [2] deals with PexRD54 effector domain (residues Val-92 to Val-381), wild type (Phytophthora infestans, UniProt D0NBE6 92-381). In words: SPR. Background: Surface plasmon resonance follows binding to a sensor surface in real time, without labels.
The target of assay [3] is T2, ATG8CL* (Ser-5 to Asn-114) (potato, UniProt M1C146 5-114).
T2 sequence: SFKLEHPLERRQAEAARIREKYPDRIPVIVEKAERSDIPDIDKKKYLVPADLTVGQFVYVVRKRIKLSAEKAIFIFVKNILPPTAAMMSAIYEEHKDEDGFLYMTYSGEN
Briefly: crystal structure.

Regarding KPLDFDWEIV (anchored to the membrane at the N terminus, free C terminus) [10-mer peptide of PexRD54 (Lys-372–Val-381), wild-type sequence], the binding result in assay [1] was “binds”.

B1: ATG8CL (Met-1 to Phe-119) with a non-cleavable C-terminal His6 tag (natural protein)
chain: MAKSSFKLEHPLERRQAEAARIREKYPDRIPVIVEKAERSDIPDIDKKKYLVPADLTVGQFVYVVRKRIKLSAEKAIFIFVKNILPPTAAMMSAIYEEHKDEDGFLYMTYSGENTFGSF
notes: also called His-tagged ATG8CL; pOPINE-ATG8CL; not shown: His6, C-terminal, kept
For orientation: Kd means the constant that tells how readily two partners part at equilibrium. A higher Kd goes with weaker binding. On to B1, for which binding in assay [2] was put at a Kd of 388 nM.

For the molecule DWEIV [PexRD54 C-terminal pentapeptide (Asp-377–Trp-378–Glu-379–Ile-380–Val-381)], the binding result in assay [3] is “binds”.
